# From ChEMBL document CHEMBL5606458, “ASAP - ZIKV NS2B-NS3 protease fluorescence single point” (2024)
# Protein sequences, listed by entry. Tags and fused reporters are not part of them. Residues count along the entry.
# UniProt A0A024AXB9, 1-66: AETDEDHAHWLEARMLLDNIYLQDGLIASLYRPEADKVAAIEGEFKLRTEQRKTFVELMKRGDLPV
# Only a part is listed here, and it is no random draw.
# Target: Nonstructural protein 3 (Zika virus) (UniProt A0A024AXB9)
smiles,measurement,setting,value
O=c1[nH]c2ccccc2n1C1CCN(Cc2c[nH]c3ccccc23)CC1,inhibition,"PRVABC59, Concentration 49.5 uM, Number of replicates 2.0, Standard deviation 1.0391268411134233 %",55.8%
same,inhibition,"PRVABC59, Concentration 99.01 uM, Number of replicates 2.0, Standard deviation 0.0031235872368393786 %",72%
same,inhibition,"PRVABC59, Concentration 198.0 uM, Number of replicates 2.0, Standard deviation 0.014042655574253717 %",84.5%
